{
  "source": "paper PMC11939955",
  "about": "“Enhancing Antimicrobial Peptides from Frog Skin: A Rational Approach” (Biomolecules, 2025)",
  "key": {"[1]": {"test": "Dynamic light scattering of LUVs", "settings": "DLS, LUVs of E. coli lipid extract"}, "[2]": {"test": "Carboxyfluorescein (CF) release from LUVs", "parameters": "species or system E. coli", "settings": "8, 32, 50 and 64 μM peptide, 10 min", "experimental": "Large unilamellar vesicles (LUVs) were prepared with the total lipid extract of E. coli (Avanti Polar Lipids). For this, an aliquot of 1 mg of lipids dissolved in chloroform was deposited into a glass tube and dried by evaporation with nitrogen (N2). The glass tube underwent vacuum treatment to eliminate any residual solvent traces. The lipids were then hydrated in 200 μL of a 5,6-carboxyfluorescein (CF) solution (Sigma-Aldrich) at a concentration of 49 mM, pH 8, and 431 mOsm/kgH2O through nine cycles of heating (70 °C for 30 s), vortexing (1 min), and freezing (ice bath for 30 s). A polycarbonate filter with a pore size of 100 nm was employed to standardize the liposome size. Twenty-one extrusion cycles were conducted at 40 °C through the filter, resulting in LUVs with an average diameter of 100 nm. Size exclusion chromatography (Sephadex G-25) was utilized to remove the CF outside of the LUVs.\nThe fluorescence spectra of the CF-filled LUVs were measured using a FluoroMax3 Jobin Yvon spectrofluorometer (Horiba Jobin Yvon; Edison, NJ, USA). A 200 μL aliquot of the LUVs containing 100 μM CF was utilized for the experiment. Excitation was performed over a wavelength range of 400 to 540 nm, with the emission recorded at 517 nm. The peptides were added at various final concentrations (8, 32, 50, and 64 μM), and the fluorescence was assessed 10 min after each addition. […]"}},
  "note": "Entries after “also recorded” stand apart in the source; their conditions may differ. Some compounds share one wording; it may come from a single statement. Where no end group is shown, it is not given here.",
  "data": [
    {"substance": "RAGALWPAIRGAIKKIIKK-NH2 [dHP3-50.137]", "values": [
      {"measurement": "Vesicle aggregation, in words", "setting": "[1]", "result": "promoted vesicle aggregation"}
    ]},
    {"substance": "RLGALIPAIRGAIKKLIKK-NH2 [dHP3-50]", "values": [
      {"measurement": "CF release from LUVs, in words", "setting": "[2]", "result": "intermediate behaviors"},
      {"measurement": "Vesicle aggregation, in words", "setting": "[1]", "result": "promoted vesicle aggregation"}
    ]},
    {"substance": "RLGKLIPRIAKAIGRLIRK-OH [dHP3-84]", "values": [
      {"measurement": "CF release from LUVs, in words", "setting": "[2]", "result": "did not affect bilayer permeability; also recorded: did not promote the release of CF"},
      {"measurement": "Vesicle aggregation, in words", "setting": "[1]", "result": "did not induce membrane disruption or aggregation"}
    ]},
    {"substance": "RRGKLIPRLAKAIGRLIRK-OH [dHP3-84.39]", "values": [
      {"measurement": "Vesicle aggregation, in words", "setting": "[1]", "result": "promoted vesicle aggregation"}
    ]}
  ]
}
